According to patent US20020006406A1, “METHOD FOR THE TREATMENT OF STAPHYLOCOCCAL DISEASE” (priority 1997, published 2002):

Test system: S. aureus strain AG461
Test: Time-kill experiment, S. aureus AG461 (FIG. 1)
Format: cell-based
Conditions: 0.004 and 0.032 μg/ml (1x and 8x MIC), within one hour of contact
Experimental: The bactericidal activity of lysostaphin against S. aureus was also studied by means of time-kill experiments. In one experiment of this type, S. aureus strain AG461, a methicillin-resistant clinical isolate from Genoa, Italy, was inoculated into Mueller-Hinton broth (Difco) and grown at 37° C. with gentle shaking until it reached approximately 10^8 viable cells per ml (CFU/ml), as estimated from the absorbance of the culture at 600 nm. The culture was then diluted with fresh broth to approximately 10^6 CFU/ml and 5 ml aliquots were placed in several different flasks for exposure to different concentrations of antibacterial agents. Incubation was continued, with gentle shaking, at 37° C., and samples were withdrawn at intervals for determination of viable cells. Serial 10-fold dilutions of the samples were made in sterile saline (0.9% NaCl in distilled water) and duplicate 0.1 ml aliquots of appropriate dilutions were plated on Tryptic Soy agar plates (Remel) using the agar inclusion method. (In this method, the aliquot to be plated is added to 2.5 ml of top agar, which is mixed and poured onto a plate. Top agar consisted of molten Tryptic Soy agar (Difco) diluted 2-fold with Difco Tryptic Soy broth to give a final agar concentration of 0.75%, w/v.) The plates were incubated for 24-48 hours at 36° C. and the colonies were counted manually. […]

lysostaphin: recombinant lysostaphin enzyme from fermentation of B. sphaericus; majority component lacks the two N-terminal amino acids of the published sequence
bacteria killed: at least 99.9%
